Measurements: EP2797914B1, “NIFURATEL SULFOXIDE FOR USE IN THE TREATMENT OF BACTERIAL INFECTIONS” (Polichem SA, priority 2011, dated 2013)

Tests used:
Atopobium vaginae = test: MIC by agar dilution method (CLSI M07-A8 / M11-A7); efficiency coefficient derived; type: cell-based; settings: nifuratel sulfoxide vs. nifuratel
Procedure: (§1) The in vitro activity of nifuratel sulfoxide racemate, R-nifuratel sulfoxide and S-nifuratel sulfoxide was tested on a panel of bacteria, which included both Gram positive and Gram negative bacteria.
(§2) The minimum inhibitory concentrations (MICs) of the compounds were determined by the broth microdilution method or by the agar dilution method, according to the National Committee for Clinical Laboratory Standards (CLSI) reference methods M07-A8 and M11-A7.
(§3) The efficiency coefficient (EC) of nifuratel sulfoxide vs. nifuratel was calculated for each tested strain as follows: EC = relative oral bioavailability*[…] [formula]
(§4) Where: • nifS = nifuratel sulfoxide • nif = nifuratel • EC = 1 is indicative of equivalent efficiency between nifuratel sulfoxide and nifuratel. • EC < 1 is indicative of a lower efficiency of nifuratel sulfoxide vs. nifuratel • EC > 1 is indicative of a higher efficiency of nifS vs. nif

Gardnerella vaginalis = test: as above; type: cell-based; settings: nifuratel sulfoxide vs. nifuratel
Procedure: as §1, §2, §3, §4

Measured: EC (efficiency coefficient)

C[S+]([O-])CC1CN(/N=C/c2ccc([N+](=O)[O-])o2)C(=O)O1 (racemic) [Nifuratel sulfoxide, nifuratel sulfoxide]
3.8: Gardnerella vaginalis; strain D2 | Gardnerella vaginalis; strain H2 | Gardnerella vaginalis; strain K2
7.5: Atopobium vaginae; strain CCUG 39382 | Atopobium vaginae; strain CCUG 42099 | Atopobium vaginae; strain CCUG 44061 | Atopobium vaginae; strain CCUG 55226 | Gardnerella vaginalis; strain ATCC 14018
15: Atopobium vaginae; strain CCUG 44156 | Atopobium vaginae; strain CCUG 48515 | Gardnerella vaginalis; strain C2
1.9: Atopobium vaginae; strain CCUG 38953 | Atopobium vaginae; strain CCUG 43049 | Atopobium vaginae; strain CCUG 55227 | Gardnerella vaginalis; strain E2 | Gardnerella vaginalis; strain G2 | Gardnerella vaginalis; strain J2
